Holding throughout (type): binding
What all share (details): SSA 100 µM; Hill Plot fit, Vmax fixed 100 %

Data set [1] deals with PE:PG mix nanodiscs. The data set can be described thus: Phospholipid nanodisc 1H NMR CPMG coordination assay, PE:PG mix nanodiscs. From the text:
(§1) Finally, to establish how any single SSA structural variation affects the coordination of an individual salt component to the surface of a phospholipid membrane, the binding of the anionic and cationic components of SSAs 5–12 with nanodiscs comprised of PC, PG or the PE : PG mix (Table 2) was studied. Nanodiscs were synthesised from synthetic vesicles of the relevant phospholipid composition. For full synthetic procedures and nanodisc characterisation please see ESI (Section 13). ^†[34,35]
(§2) Styrene-maleic acid (SMA) nanodiscs are small biomimetic scaffolds with a hydrodynamic diameter ≈ 10 nm. They consist of a single disc-shaped planar phospholipid bilayer, ‘belted’ in this instance with a synthetic SMA co-polymer. Here nanodiscs of a specific phospholipid composition were titrated against a solution of SSAs 5–12 (0.10 mM) in a sodium phosphate buffer (20 mM) with NaCl (20 mM) at pH 7.4. This solution was supplemented with 5% D2O, to enable NMR locking and 4,4-dimethyl4-silapentane-1-sulfonic acid (DSS – 0.02 mM) to act as an internal standard. The nanodiscs were then titrated against the SSA, while the SSA concentration was maintained as constant, well below the CMC (Table 3).[38] A 1D ^1H NMR with a Carr–Purcell–Meiboom–Gill sequence (CPMG) filter (300 ms),[36,48] modified with a watergate element was then obtained for each experimental data point. The watergate element was used to allow suppression of the water signal, whereas the CPMG filter enabled the suppression of those resonances from molecular species with long correlation times, which in this instance correlate to the signals of those SSAs coordinated to the nanodisc, rather than those which exist as free species in solution. Comparative integration of the resonances corresponding to the SSA cation or anion, standardised against the DSS internal standard, permits the percentage of the individual SSA components coordinated to the phospholipid nanodisc to be established with respect to increasing nanodisc concentration.
(§3) However, when considering the 1/EC50 for the SSA cationic component (Fig. 10b), the reverse is true. This is perhaps expected, but nevertheless despite the identical experimental conditions, including the same TBA counter cation across SSAs 5–12, there is a marked difference in the 1/EC50 obtained, where the only difference is the SSA anion present. This is most noticeable for the series of SSA titrations involving the PE : PG mix (Table 2) nanodiscs. The only variation within this set of titrations is the structure of the SSA anion; we therefore conclude that the SSA anion is influencing SSA cation nanodisc coordination events. This observation provides evidence for the presence of further complex interactions informing SSA:nanodisc coordination processes. […]
(§4) Data were acquired in endpoint mode. All experiments were repeated in triplicate […]
(§5) Nanodisc preparation: Lipid films were resuspended in Buffer (20 mM NaCl, 20 mM NaH 2PO4, pH 7.4) and sonicated for 1 hour, at a 5:1 ratio, SMA was added and incubated at 37 °C for 1 hour. Dialysed overnight in 5 L of the same buffer in 10 KDa cut-off dialysis tubing, concentrated, and underwent gel filtration size exclusion chromatography on a Superdex 200 10/300 GL column (GE Healthcare) in the same buffer, whilst monitoring absorbance at 260 nm. Nanodisc quantification carried out via monitoring of absorbance at 260 nm using a calibration curve.2
(§6) 1H NMR CPMG: 1H NMR CPMG3,4 spectra were obtained with a Bruker Avance III […] spectrometer equipped with a TCIP cryoprobe at 298 K. Samples were supplemented with 5 % D 2O and 0.02 mM 4,4-dimethyl4-silapentane-1-sulfonic acid (DSS). The standard zgprcpmg pulse sequence from the Bruker library was modified with a watergate element to allow suppressi on of the water signal and was used for all experiments. Although this sequence is readily obtainable, we are happy to provide it on request. The P1 pulses were 9 µs at a power of 7.9 W. Presaturation was applied between […]

The test system of data set [2] is PG nanodiscs. The data set can be described thus: Phospholipid nanodisc 1H NMR CPMG coordination assay, PG nanodiscs.
Source text: as §1, §2, §3, §4, §5, §6

In data set [3] the test system is PC nanodiscs. Kind of data set: Phospholipid nanodisc 1H NMR CPMG coordination assay, PC nanodiscs.
Source text: as §1, §2, §3, §4, §5, §6

On to `Cc1ccc2nc(NC(=O)NCS(=O)(=O)O)sc2c1` [SSA 7], for which the “hill coefficient (n) PE:PG mix, cationic SSA component” value in data set [1] is 0.81. For the same compound, the “hill coefficient (n) PG, cationic SSA component” value in data set [2] was 1.20.

For the compound `Cc1ccc2nc(-c3ccc(NC(=O)NCC(=O)O)cc3)sc2c1` [SSA 11], in data set [1], the “hill coefficient (n) PE:PG mix, anionic SSA component” value is on record as 1.69 and the “hill coefficient (n) PE:PG mix, cationic SSA component” value was determined as 0.87. In data set [2], the “hill coefficient (n) PG, anionic SSA component” value is 2.41 and the “hill coefficient (n) PG, cationic SSA component” value came out at 1.45. For the same compound, the “hill coefficient (n) PC, anionic SSA component” value in data set [3] worked out at 1.10.

Regarding `O=C(NCS(=O)(=O)O)Nc1ccc(-c2nc3ccccc3s2)cc1` [SSA 8], the “hill coefficient (n) PE:PG mix, anionic SSA component” value in data set [1] is 0.98. Moreover, the “hill coefficient (n) PG, cationic SSA component” value in data set [2] is 1.35. The “hill coefficient (n) PC, anionic SSA component” value in data set [3] is 1.06.

Take `Cc1ccc2nc(-c3ccc(NC(=S)NCS(=O)(=O)O)cc3)sc2c1` [SSA 12]: in data set [1], the “hill coefficient (n) PE:PG mix, anionic SSA component” value was 1.44 and the “hill coefficient (n) PE:PG mix, cationic SSA component” value turned out to be 0.62. Besides, in data set [2], the “hill coefficient (n) PG, anionic SSA component” value is 1.51 and the “hill coefficient (n) PG, cationic SSA component” value came out at 0.75. In data set [3], the “hill coefficient (n) PC, anionic SSA component” value is reported as 2.65 and the “hill coefficient (n) PC, cationic SSA component” value turned out to be 0.42.

As for `Cc1ccc2nc(-c3ccc(NC(=O)NCS(=O)(=O)O)cc3)sc2c1` [SSA 6], in data set [1], the “hill coefficient (n) PE:PG mix, anionic SSA component” value worked out at 1.85 and the “hill coefficient (n) PE:PG mix, cationic SSA component” value was found to be 0.70. Also, in data set [2], the “hill coefficient (n) PG, anionic SSA component” value is 1.60 and the “hill coefficient (n) PG, cationic SSA component” value came out at 0.93. Moreover, the “hill coefficient (n) PC, anionic SSA component” value in data set [3] was 1.84.

With `Cc1ccc2nc(-c3ccc(NC(=O)NCCCS(=O)(=O)O)cc3)sc2c1` [SSA 10], in data set [1], the “hill coefficient (n) PE:PG mix, anionic SSA component” value is listed as 1.25 and the “hill coefficient (n) PE:PG mix, cationic SSA component” value stood at 0.95. In data set [2], the “hill coefficient (n) PG, anionic SSA component” value turned out to be 1.47 and the “hill coefficient (n) PG, cationic SSA component” value is given as 0.67. For the same compound, in data set [3], the “hill coefficient (n) PC, anionic SSA component” value came out at 1.80 and the “hill coefficient (n) PC, cationic SSA component” value amounted to 1.27.

On to `O=C(NCS(=O)(=O)O)Nc1ccccc1-c1nc2ccccc2s1` [SSA 5], for which, in data set [1], the “hill coefficient (n) PE:PG mix, anionic SSA component” value is on record as 2.05 and the “hill coefficient (n) PE:PG mix, cationic SSA component” value turned out to be 1.60. In data set [2], the “hill coefficient (n) PG, cationic SSA component” value is 1.11.

Take `Cc1ccc2nc(-c3ccc(NC(=O)NCCC(=O)O)cc3)sc2c1` [SSA 9]: the “hill coefficient (n) PE:PG mix, anionic SSA component” value in data set [1] is 3.76. Also, in data set [2], the “hill coefficient (n) PG, anionic SSA component” value is 3.29 and the “hill coefficient (n) PG, cationic SSA component” value was 1.34. Also, in data set [3], the “hill coefficient (n) PC, anionic SSA component” value came to 1.43 and the “hill coefficient (n) PC, cationic SSA component” value stood at 0.71.

For the origin of these results see paper PMC9400670, “Establishing the selective phospholipid membrane coordination, permeation and lysis properties for a series of ‘druggable’ supramolecular self-associating antimicrobial amphiphiles” (Chemical Science, 2022).
